From patent US20100016367A1, “BIS-PYRINIDIUM COMPOUNDS” (priority 2006, published 2010) come the findings set out here.

For assay [1], the system named is C. albicans ATCC 10231. Briefly: Antifungal susceptibility assay, MIC. The class given is cell-based, Candida albicans.
In assay [2] the test system is C. neoformans ATCC 90112. Briefly: Antifungal susceptibility assay, MIC. The class given is cell-based, Cryptococcus neoformans.
Assay [3] concerns C. krusei ATCC 6258. Briefly: Antifungal MIC, broad spectrum. The format is cell-based, Candida krusei. The following applies: Table 1b.
The test system of assay [4] is C. krusei 04-202328. In words: Antifungal MIC, broad spectrum. The class given is cell-based, Candida krusei. The following applies: Table 1b.
Assay [5] relates to C. albicans ATCC 90028. In words: Antifungal MIC, broad spectrum. The format is cell-based, Candida albicans. The note with it: Table 1b.
Assay [6] has as its system S. prolificans 05-203060. Briefly: Antifungal MIC, broad spectrum. The format is cell-based, Scedosporium prolificans. The following applies: Table 1b.
For assay [7], the system named is C. glabrata 04-202345. Briefly: Antifungal MIC, broad spectrum. The class given is cell-based, Candida glabrata. The following applies: Table 1b.
Assay [8] deals with C. neoformans 05-202523. Briefly: Antifungal MIC, broad spectrum. The format is cell-based, Cryptococcus neoformans. The following applies: Table 1b.
Assay [9] relates to Absidia corymbifera 04-200170. In words: Antifungal MIC, broad spectrum. The format is cell-based. The following applies: Table 1b.
The subject of assay [10] is Paecilomyces lilacinus 05-200601. In words: Antifungal MIC, broad spectrum. The note with it: Table 1b. The class given is cell-based.
For assay [11], the system named is Rhizopus oryzae 05-203111. In words: Antifungal MIC, broad spectrum. The class given is cell-based. The following applies: Table 1b.
Assay [12] concerns Exophiala spinifera 03-200803. In words: Antifungal MIC, broad spectrum. The format is cell-based. The note with it: Table 1b.
Assay [13] has as its system Fusarium solani 04-203102. In words: Antifungal MIC, broad spectrum. The class given is cell-based. The following applies: Table 1b.
Assay [14] has as its system Exophiala jeanselmei 03-200268. Briefly: Antifungal MIC, broad spectrum. The class given is cell-based. The following applies: Table 1b.
Assay [15] concerns C. tropicalis 04-202361. Briefly: Antifungal MIC, broad spectrum. The class given is cell-based, Candida tropicalis. The note with it: Table 1b.
The subject of assay [16] is A. fumigatus 05-203114. Briefly: Antifungal MIC, broad spectrum. The class given is cell-based, Aspergillus fumigatus. The note with it: Table 1b.
Assay [17] concerns A. fumigatus ATCC 204305. Briefly: Antifungal MIC, broad spectrum. The format is cell-based, Aspergillus fumigatus. The note with it: Table 1b.
For assay [18], the system named is A. flavus ATCC 204304. Briefly: Antifungal MIC, broad spectrum. The format is cell-based, Aspergillus flavus. The following applies: Table 1b.
For assay [19], the system named is A. flavus 05-203758. In words: Antifungal MIC, broad spectrum. The class given is cell-based, Aspergillus flavus. The note with it: Table 1b.
In assay [20] the test system is C. parapsilosis ATCC 22019. Briefly: Antifungal MIC, broad spectrum. The format is cell-based, Candida parapsilosis. The following applies: Table 1b.
Assay [21] has as its system C. parapsilosis 04-202398. In words: Antifungal MIC, broad spectrum. The class given is cell-based, Candida parapsilosis. The following applies: Table 1b.
Assay [22] concerns C. gattii 05-200122. In words: Antifungal MIC, broad spectrum. The format is cell-based, Cryptococcus gattii. The note with it: Table 1b.
Assay [23] deals with S. apiospermum 05-203100. Briefly: Antifungal MIC, broad spectrum. The class given is cell-based, Scedosporium apiospermum. The note with it: Table 1b.
Assay [24] concerns A. terreus 05-202844. Briefly: Antifungal MIC, broad spectrum. The format is cell-based, Aspergillus terreus. The following applies: Table 1b.
Assay [25] has as its system Cunninghamella berth 99-12187. In words: Antifungal MIC, broad spectrum. The class given is cell-based, Cunninghamella bertholletiae. The following applies: Table 1b.

`CCCCCc1cc[n+](CCOCCOCCOCC[n+]2ccc(CCCCC)cc2)cc1`: the “MIC C. albicans ATCC 10231” value in assay [1] (Table 1a) is greater than 175 µM. Also, the “MIC C. neoformans ATCC 90112” value in assay [2] (Table 1a) was in the range of 44 to 88 µM.
As to `CCCCCc1cc[n+](CCCCCCCCCCCCCCCC[n+]2ccc(CCCCC)cc2)cc1`, the “MIC C. albicans ATCC 10231” value in [1] (Table 1) turned out to be 0.7 µM. Further, the “MIC C. neoformans ATCC 90112” value in assay [2] (Table 1) was 0.7 µM.
As to `CCCCCc1cc[n+](CCCCCCCCCCCC[n+]2ccc(CCCCC)c(C)c2)cc1C`, the “MIC C. krusei ATCC 6258” value in assay [3] was 11 µM. The “MIC C. krusei 04-202328” value in assay [4] was 11 µM. Besides, the “MIC C. albicans ATCC 90028” value in [5] turned out to be 2.75 µM. Also, in assay [6], the “MIC S. prolificans 05-203060” value is 2.75 µM. The “MIC C. albicans ATCC 10231” value in assay [1] (Table 1b) came out at 2.75 µM. Further, the “MIC C. glabrata 04-202345” value in assay [7] amounted to 1.4 µM. The “MIC C. neoformans 05-202523” value in assay [8] was 22 µM. Besides, the “MIC Absidia corymbifera 04-200170” value in assay [9] came to 87.5 µM. Moreover, in [10], the “MIC Paecilomyces lilacinus 05-200601” value was greater than 87.5 µM. The “MIC Rhizopus oryzae 05-203111” value in assay [11] came to 2.75 µM. The “MIC Exophiala spinifera 03-200803” value in [12] was 1.4 µM. The “MIC Fusarium solani 04-203102” value in assay [13] is 22 µM. In addition, the “MIC Exophiala jeanselmei 03-200268” value in assay [14] stood at 2.75 µM. Also, the “MIC C. tropicalis 04-202361” value in assay [15] is 1.4 µM. Also, the “MIC A. fumigatus 05-203114” value in assay [16] amounted to 44 µM. Besides, the “MIC A. fumigatus ATCC 204305” value in assay [17] was determined as 44 µM. Further, the “MIC A. flavus ATCC 204304” value in assay [18] is 22 µM. In assay [19], the “MIC A. flavus 05-203758” value is 44 µM. In [20], the “MIC C. parapsilosis ATCC 22019” value was determined as 1.4 µM. Besides, the “MIC C. parapsilosis 04-202398” value in [21] amounted to 44 µM. For the same compound, the “MIC C. gattii 05-200122” value in assay [22] is 1.4 µM. Further, the “MIC S. apiospermum 05-203100” value in assay [23] turned out to be 11 µM. Also, the “MIC C. neoformans ATCC 90112” value in [2] (Table 1b) was determined as 1.4 µM. Further, the “MIC A. terreus 05-202844” value in [24] was determined as 1.4 µM.
Take `c1ccc(CCCc2cc[n+](CCCCCCCCCCCC[n+]3ccc(CCCc4ccccc4)cc3)cc2)cc1`: the “MIC C. krusei ATCC 6258” value in assay [3] stood at 22 µM. Also, in assay [4], the “MIC C. krusei 04-202328” value was 22 µM. Moreover, the “MIC C. albicans ATCC 90028” value in assay [5] worked out at 2.75 µM. Moreover, the “MIC S. prolificans 05-203060” value in assay [6] is greater than 87.5 µM. Also, in assay [1] (Table 1b), the “MIC C. albicans ATCC 10231” value was found to be 2.75 µM. Moreover, the “MIC C. glabrata 04-202345” value in assay [7] was 1.4 µM. The “MIC C. neoformans 05-202523” value in assay [8] was 44 µM. Moreover, the “MIC Absidia corymbifera 04-200170” value in assay [9] was greater than 87.5 µM. For the same compound, the “MIC Paecilomyces lilacinus 05-200601” value in assay [10] is greater than 87.5 µM. In addition, the “MIC Rhizopus oryzae 05-203111” value in assay [11] is 1.4 µM. In [12], the “MIC Exophiala spinifera 03-200803” value stood at 2.75 µM. Further, the “MIC Fusarium solani 04-203102” value in assay [13] was 44 µM. The “MIC C. tropicalis 04-202361” value in assay [15] worked out at 1.4 µM. The “MIC A. fumigatus 05-203114” value in [16] came to 22 µM. Besides, the “MIC A. fumigatus ATCC 204305” value in assay [17] was determined as 44 µM. Also, the “MIC A. flavus ATCC 204304” value in [18] amounted to 87.5 µM. The “MIC A. flavus 05-203758” value in [19] was greater than 87.5 µM. Further, the “MIC C. parapsilosis ATCC 22019” value in assay [20] stood at 1.4 µM. Also, the “MIC C. parapsilosis 04-202398” value in assay [21] came out at 87.5 µM. For the same compound, in assay [22], the “MIC C. gattii 05-200122” value turned out to be 2.75 µM. Also, the “MIC Cunninghamella berth 99-12187” value in assay [25] came out at 44 µM. In addition, in assay [23], the “MIC S. apiospermum 05-203100” value was greater than 87.5 µM. The “MIC C. neoformans ATCC 90112” value in assay [2] (Table 1b) was 2.75 µM. Moreover, the “MIC A. terreus 05-202844” value in assay [24] came out at 2.75 µM.
For “1,12-bis[4-(1-pentene)pyiridinium]dodecane dichloride”, the entries for the “MIC C. albicans ATCC 10231” value in assay [1] (Table 1) and in assay [1] (Table 1c) were 2.7 µM and 2.75 µM, respectively.
`CCCCCc1cc[n+](CCOCCOCCOCCOCC[n+]2ccc(CCCCC)cc2)cc1`: in [1] (Table 1a), the “MIC C. albicans ATCC 10231” value is greater than 175 µM. In addition, the “MIC C. neoformans ATCC 90112” value in [2] (Table 1a) is 88 µM.
